# Reference: BindingDB's records for doi:10.1021/acsmedchemlett.8b00054 (Shandong University, 2018)
# Experiment: Inhibition of HIV1 reverse transcriptase K103N mutant infected in human MT4 cells assessed as protection against virus-induced cytotoxicity by MTT assay
compound,measurement,value
Cc1cc(C#N)cc(C)c1Oc1nc(Nc2ccc(C#N)cc2)nc(N)c1Br,EC50,5.4 nM
